Reference: patent EP0706514B1, “COMPOUNDS AND METHODS FOR INHIBITION OF HIV AND RELATED VIRUSES” (MEDIVIR AB, priority 1993, dated 1995)

Target: recombinant HIV-RT (Human immunodeficiency virus type 1 group M subtype B, UniProt P04585)
Conditions: Test I

CCOc1ccc(F)c([C@@H]2C[C@@H]2NC(=O)Nc2ccc(Cl)cn2)c1Cl (relative stereo)
IC50: 1.1 ng/mL and 2 ng/mL

Where “and” joins values, the source holds several entries; their conditions need not be identical. Identical values can stand only once.
